Experimental data reported in patent US20200339636A1 (CHILDREN S MEDICAL CENTER, published 2020).

Experiments:
[1] = molecular target: Recombinant full length TcdB (C. difficile strain VPI 10463), 6xHis-tagged (Clostridium difficile strain VPI 10463, UniProt P18177 1-2366); assay: BLI, CRD5-Fc pre-mixed with Wnt3A on the biosensor, 1 µM TcdB
[2] = molecular target: sTcdB (TcdB residues 1285-1804), wild type, with C-terminal HA tag (Clostridium difficile, UniProt P18177 1285-1804)

B1: FZD5^CRD-Fc (recombinant human, Sino Biologics) (Fc fusion, UniProt Q13467 27-167, looked up)
chain: ASKAPVCQEITVPMCRGIGYNLTHMPNQFNHDTQDEAGLEVHQFWPLVEIQCSPDLRFFLCSMYTPICLPDYHKPLPPCRSVCERAKAGCSPLMRQYGFAWPERMSCDRLPVLGRDAEVLCMDYNRSEATTAPPRPFPAKP
notes: domain: CRD; also called CRD5; CRD5-Fc; not shown: Fc tag of the bought protein
B1: binds [1].

B2: FZD4^CRD-Fc (recombinant human, Sino Biologics) (Fc fusion)
chain: FGDEEERRCDPIRISMCQNLGYNVTKMPNLVGHELQTDAELQLTTFTPLIQYGCSSQLQFFLCSVYVPMCTEKINIPIGPCGGMCLSVKRRCEPVLKEFGFAWPESLNCSKFPPQNDHNHMCMEGPGDEEVPLPHKTPIQPGEE
notes: domain: CRD
B2: binds [2].

B3: FZD8^CRD-Fc (recombinant human, R&D Systems) (Fc fusion)
chain: ASAKELACQEITVPLCKGIGYNYTYMPNQFNHDTQDEAGLEVHQFWPLVEIQCSPDLKFFLCSMYTPICLEDYKKPLPPCRSVCERAKAGCAPLMRQYGFAWPDRMRCDRLPEQGNPDTLCMDYNRTDLTT
notes: domain: CRD
B3: binds [2].
